# The list shows a part of the results, in another mix than the full data. Active and inactive are the calls of the source. Rule as the data show it: active = inhibition above about 52%; inactive = the rest.
# Assay: suppresses PrP 5' UTR mRNA reporter expression (AID 488862); also: 0 = median of the neutral control wells
# Conditions: cell-based PrP 5' UTR mRNA reporter, plate reader; hits give high values; concentration not given here
row,Compound,inhibition
1,Cc1cc(C)cc(OP(C)(=O)Nc2ccc(C)cc2C)c1 (configuration not stated),inactive: -25.5%
2,CCOC(=O)c1ccc(NP(C)(=O)Oc2cc(C)cc(C)c2)cc1 (configuration not stated),inactive: 14.4%
3,O=C(OC1CN2CCC1CC2)c1ccc(Cl)cc1 (configuration not stated),inactive: -27.7%
4,COc1cc(C(=O)NCC2(N3CCOCC3)CCCCC2)cc(Cl)c1OC(C)C,inactive: -13.3%
5,O=[As](O)(O)c1cccnc1,inactive: -7.65%
6,CS(=O)(=O)c1ccc(Cl)c(NC(=O)COC(=O)C(O)(c2ccccc2)c2ccccc2)c1,inactive: -26.3%
7,COc1ccccc1OP(C)(=O)Nc1cccc(Br)c1 (configuration not stated),inactive: -22.1%
8,N#CCCN(C(=O)COC(=O)C(O)(c1ccccc1)c1ccccc1)c1ccc(F)cc1,inactive: -122%
9,CCOP1(=S)c2c(C)nn(CCC#N)c2N=C(c2ccc(F)cc2)N1C (configuration not stated),inactive: -10.4%
10,CN(C(=O)Cc1ccccc1)[C@@H]1CC[C@]2(CCCO2)C[C@H]1N1CCCC1,inactive: -15.8%
11,CN(C)C(=O)c1cc([N+](=O)[O-])cc2c1-c1c(cc([N+](=O)[O-])cc1[N+](=O)[O-])C2=O,inactive: -1.15%
12,O=[N+]([O-])c1ccc2c(c1)nnn2O,inactive: 1.31%
13,CN(C(=O)Cc1ccc(Cl)c(Cl)c1)[C@H]1CC[C@@]2(CCCO2)C[C@@H]1N1CCCC1,inactive: -69.7%
14,CC1=NCCc2c1[nH]c1ccccc21.O=[N+]([O-])c1cc([N+](=O)[O-])c(O)c([N+](=O)[O-])c1,inactive: -0.23%
15,NC(=O)Nc1ccc([As](=O)(O)O)cc1,inactive: -6.12%
16,O=C(O)COc1ccc([As](=O)(O)O)cc1[N+](=O)[O-],inactive: -3.28%
17,Nc1ccccc1[As](=O)(O)c1ccccc1,inactive: -8.86%
18,O=C(O)c1cccc(Nc2c([N+](=O)[O-])cc([N+](=O)[O-])cc2[N+](=O)[O-])c1,inactive: 7.18%
19,CCOP1(=S)c2c(C)nn(CCC#N)c2N=C(c2ccccc2F)N1C (configuration not stated),inactive: -30.4%
20,O=P(Nc1nccs1)(c1ccccc1)c1nc2ccccc2s1 (configuration not stated),inactive: -2.35%
21,O=P(Nc1nccs1)(Oc1ccccc1)Oc1ccccc1,inactive: -12.6%
22,CS(=O)(=O)c1cc([N+](=O)[O-])c2no[n+]([O-])c2c1,inactive: 11.9%

row,Compound,inhibition
1,Nc1cccc([As](=O)(O)c2ccccc2)c1,inactive: 0.782%
2,CP(=O)(Nc1ccc(SC(F)(F)F)cc1)Oc1ccccc1 (configuration not stated),inactive: -15.3%
3,CCCOc1ccc(NP(C)(=O)Oc2ccc(Cl)cc2)cc1 (configuration not stated),inactive: -10.4%
4,NS(=O)(=O)c1cccc(NC(=O)COC(=O)C(O)(c2ccccc2)c2ccccc2)c1,inactive: -10.4%
5,O=P1(Nc2ccc(Br)cn2)COc2ccccc2OC1,inactive: 0.369%
6,O=[As](O)(c1cccs1)c1cccs1,inactive: -16.9%
7,Cc1ccc(OCC(=O)OC2CN3CCC2CC3)cc1 (configuration not stated),inactive: -23.8%
8,O=P1(Nc2ncccn2)COc2ccccc2OC1,inactive: -9.71%
9,CN1CCCCC1COC(=O)C1(O)c2ccccc2CCc2ccccc21 (configuration not stated),inactive: -0.628%
10,COc1ccccc1OP(C)(=O)Nc1c(C)cccc1C (configuration not stated),inactive: -6.24%
11,O=[N+]([O-])c1cc([N+](=O)[O-])c(Nc2nnnn2CCO)c([N+](=O)[O-])c1,inactive: -6.86%
12,CC1=C2N=C(C=C3N=C(C(C)=C4[N-][C@@](C)([C@@H]5N=C1[C@](C)(CCC(=O)NC[C@@H](C)OP(=O)([O-])O[C@H]1[C@@H](O)[C@@H](n6cnc7cc(C)c(C)cc76)O[C@@H]1CO)[C@H]5CC(N)=O)[C@@](C)(CC(N)=O)[C@@H]4CCC(N)=O)[C@@](C)(CC(N)=O)[C@@H]3CCC(N)=O)C(C)(C)[C@@H]2CCC(N)=O.[C-]#N.[Co+3],inactive: -28.9%
13,CN(C)C1(CNC(=O)c2ccc(S(C)(=O)=O)cc2)CCCCC1,inactive: -10.2%
14,CCOC(=O)C(CC)C1=NC(C)(C)Cc2ccccc21.O=[N+]([O-])c1cc([N+](=O)[O-])c(O)c([N+](=O)[O-])c1 (configuration not stated),inactive: 6.95%
15,O=C(/C=C/c1ccccc1)OC1CN2CCC1CC2 (configuration not stated),inactive: -31.9%
16,CCCC1OP(=O)(Nc2ccccc2)OCC1CC (configuration not stated),inactive: -10.7%
17,Cc1nn(-c2ccccc2)c2c1P(=O)(N1CCOCC1)N(C)C(c1ccccc1)=N2 (configuration not stated),inactive: -31.2%
18,Cc1ccc(C(=O)OC2CN3CCC2CC3)cc1 (configuration not stated),inactive: -10.9%
19,CC1CCC(C(C)C)C(OP(=O)(Nc2ccccn2)c2ccccc2)C1 (configuration not stated),inactive: 3.2%
20,COc1cc(C2NCCC3(OCCO3)C2(C)C)cc(OC)c1OC.O=[N+]([O-])c1cc([N+](=O)[O-])c(O)c([N+](=O)[O-])c1 (configuration not stated),inactive: -12.3%
21,CN(C(=O)Cc1ccc(Cl)c(Cl)c1)[C@@H]1CCCC[C@H]1N1CCCC1,inactive: -14.7%
22,CC(C)/C=N\N=C(\N)N[N+](=O)[O-],inactive: -8.41%

row,Compound,inhibition
1,Cc1nc2ccc3ccccc3c2s1.O=[N+]([O-])c1cc([N+](=O)[O-])c(O)c([N+](=O)[O-])c1,inactive: -19%
2,CC1(CBr)Cn2c(nc3ccccc3c2=O)S1 (configuration not stated),inactive: -3.44%
3,O=[N+]([O-])c1cc([N+](=O)[O-])c(-c2cnn(-c3ccccc3)c2)c([N+](=O)[O-])c1,inactive: -24.3%
4,COc1ccccc1CNC(=O)COC(=O)C(O)(c1ccccc1)c1ccccc1,inactive: -24.5%
5,Clc1n[nH]nc1-c1nn[nH][15n]1,inactive: -23%
6,CC(C)(C)C(=O)NC(Sc1ncccn1)C(Cl)(Cl)Cl (configuration not stated),inactive: -3.76%
7,CCC1=CC2Cc3nc4ccc(Cl)cc4c(N)c3C(C1)C2 (configuration not stated),inactive: 10.4%
8,O=P1(Nc2ccccn2)COc2ccccc2OC1,inactive: 5.25%
9,CCOP(=O)(NC(=NC(C)c1ccccc1)NC(C)c1ccccc1)OCC (configuration not stated),inactive: -21.2%
10,O=[N+]([O-])c1cc([N+](=O)[O-])c(-n2nnc3ccccc32)c([N+](=O)[O-])c1,inactive: -9.58%
11,CCOP(=O)(Nc1ccc(C)cn1)OCC,inactive: -31.6%
12,Cc1ccccc1NP(C)(=O)Nc1ccccc1C,inactive: -23.7%
13,CP(=O)(Nc1ccc2c(c1)OCCO2)Oc1ccccc1 (configuration not stated),inactive: -17.1%
14,c1nnnn1CCn1cnnn1,inactive: -14.2%
15,CCOP(C)(=S)SCC(=O)NC(C)(CC)C(=O)O (configuration not stated),inactive: -14%
16,O=P(Nc1nccs1)(c1ccccc1)c1ccccc1,inactive: -3.99%
17,CC(C)C(=O)NC(Sc1ccccc1)C(Cl)(Cl)Cl (configuration not stated),inactive: -8.49%
18,CP(=O)(Nc1ccc(SC(F)(F)F)cc1)Oc1ccc(F)cc1 (configuration not stated),inactive: -6.88%
19,O=C(OC1CN2CCC1CC2)c1cccc(Cl)c1 (configuration not stated),inactive: -62.3%
20,Cc1c(C(c2ccc3c(c2)OCO3)c2c(C)n(C)n(-c3ccccc3)c2=O)c(=O)n(-c2ccccc2)n1C.O=[N+]([O-])c1cc([N+](=O)[O-])c(O)c([N+](=O)[O-])c1,inactive: -5.37%
21,Nc1ccc([As](=O)(O)c2ccc([N+](=O)[O-])cc2)cc1,inactive: -11.6%
22,C(Cc1nn[nH]n1)Cc1nn[nH]n1,inactive: -2.17%

row,Compound,inhibition
1,O=[As](O)(c1ccccc1)c1ccc(O)cc1,inactive: -5.47%
2,O=[N+]([O-])c1cc([N+](=O)[O-])c(NCC2CCS(=O)(=O)C2)c([N+](=O)[O-])c1 (configuration not stated),inactive: -30.3%
3,Cc1cc(-c2cccc3ccccc23)c(C)cn1.O=[N+]([O-])c1cc([N+](=O)[O-])c(O)c([N+](=O)[O-])c1,inactive: -15.6%
4,O=[N+]([O-])c1ncn(CCn2cnc([N+](=O)[O-])n2)n1,inactive: -3.73%
5,CC(=O)NC(SC(=S)N(C)C)C(Cl)(Cl)Cl (configuration not stated),inactive: 37.8%
6,O=[N+]([O-])c1ccc(OP2(=O)COCCO2)cc1 (configuration not stated),inactive: -7.44%
7,O=[N+]([O-])c1ccc(O)c(/C=N/Nc2ccc([N+](=O)[O-])cc2[N+](=O)[O-])c1,inactive: 9.21%
8,COc1ccc(NP(C)(=O)Oc2ccccc2OC)cc1 (configuration not stated),inactive: -26.7%
9,O=P(Nc1nc2ccccc2s1)(c1ccccc1)c1ccccc1,inactive: -36.3%
10,CN(C)CCOC(=O)C(O)(c1ccccc1)C1CCCCC1 (configuration not stated),inactive: -7.38%
11,C[C@H]1OP(=O)(Oc2ccccc2)[C@H](O)[C@H](O)[C@H]1N=[N+]=[N-] (some centres not stated),inactive: -31%
12,CN(C)C1(CNC(=O)c2ccc(Cl)c(S(N)(=O)=O)c2)CCCCC1,inactive: -20.3%
13,O=P(Nc1ccccn1)(c1ccc(Br)cc1)c1ccc(Br)cc1,inactive: -8.38%
14,COc1ccc(OP(C)(=O)Nc2cccc(Br)c2)cc1 (configuration not stated),inactive: -19.4%
15,COc1ccc(N)c([N+](=O)[O-])c1[N+](=O)[O-],inactive: -16.5%
16,Cc1ccccc1OP(=O)(Nc1ccccn1)Oc1ccccc1C,inactive: -29.5%
17,CC(NC(=O)COC(=O)C(O)(c1ccccc1)c1ccccc1)c1ccccc1 (configuration not stated),inactive: -8.97%
18,CN(C)C(=O)Oc1noc2ccccc12,inactive: -7.66%
19,O=c1c2cc([N+](=O)[O-])ccc2[nH]c2c([N+](=O)[O-])cc([N+](=O)[O-])cc12,inactive: -1.01%
20,CCCCCOc1ccc(NP(C)(=O)Oc2ccc(Cl)cc2Cl)cc1 (configuration not stated),inactive: -43.9%
21,O=[N+]([O-])c1cc([N+](=O)[O-])c(OC2CCCCC2O)c([N+](=O)[O-])c1 (configuration not stated),inactive: -15.5%

# Reference: PubChem BioAssay AID488862 (Broad Institute, 2010)
